Human monoclonal antibodies against the spike receptor-binding domain (heavy:light variable regions). IC50 against pseudoviruses bearing the spike of naturally observed variants; lower = stronger; >10 µg/ml means not reached at the top dose. No active / inactive call. The stated detection limit is 0.0005 µg/ml; values near or below 0.001 µg/ml lie at the floor of the assay.
B1: BD57-0265 (protein)
chain 1: QVQLQVSGPGLVKPSETLSLTCTVSGGSISSYYWTWIRQPPGKGLEWIGYVFYNGSTKYNPSLKSRLTISVDTSRDQFSLRLRSVTAADTAVYFCAGDYGDSYYQFGMDVWGQGTTVTVSS
chain 2: DIQMTQSPSSVSASVGDRVTITCRASQGISGWLAWYQQKPGKAPKLLIYAASNLQSGVPSRFSGSGSGTDFTLSIDNLQPEDFATYYCQQANSFPRTFGQGTKVEIK
B2: BD57-0288 (protein)
chain 1: EVQLVESGGGLVQPGRSLRLSCAASGFTFDDYAMHWVRQAPGKGLEWVSGISWNGGTIGYADSVKGRFIISRDNAKNSLHLQMNWLRSEDSGFYYCAKDEGDYGNHHHYTMHVWGQGTSVIVSS
chain 2: QSALTQPASVSGSPGQSITISCTGTSSDVGGYNYVSWYQQHAGRAPKLMIYDVTNRPSGVSDRFSGSKSGNTASLTISGLQAEDEADYYCSSYTRSSEVVFGGGTKLTVL
B3: BD57-0316 (protein)
chain 1: EVQLVESGGGLVQPGRSLRLSCAASGFTFDDYAMHWVRQTPGKGLEWVSGISWDSGDVGYADSVKGRFTISRDNAKNSLYLQMNSLRAEDTALYYCARGRLGHYDSWNWFDPWGQGTLVIVSS
chain 2: DIVMTQSPDSLAVSLGERATINCKSSQSVLYSSNNKNYLAWYQQKPGQPPKLLIYWASTRQSGVPDRLSGSGSGTDFTLTISSLQAEDVALYYCQQYYTTPLTFGGGTKVEIK
B4: BD57-0282 (protein)
chain 1: QVQLVESGGGVVQPGRSLRLSCAVSRFTFSRYPMHWVRQTPGKGLEWVAAITSDGTGKFYAESVKGRFTISRDNSKNTMYLQMNSLRPEDTAMYYCAREGDMSMVAILDYWGQGALVTVSS
chain 2: DIQMTQSPTSLSASVGDRVTITCRASQSIQSYLNWYQQKPGKAPKLLIYSASTLHSGVPSRFSGSGSGTDFTLTISSLQPEDFATYYCQQSYSSFPLTFGGGTKVEIK
B5: BD57-0267 (protein)
chain 1: QVQLQESGPGLVKPSETLSLTCIVSGASITDSHWSWIRQPPGKGLEWIGYLYYSGYTDYNPSLKSRVTISLDTPKNQFSLKVSSVTAADTAVYYCARLRLGKILTARWFDPWGQGTLVTVSS
chain 2: QSVLTQPPSVSGAPGQRVTISCTGSSSNIGAGYDVHWYQQFPGTAPELLIYGNNNRPSGVPDRFSGSKSGTSASLAITGLQAEDEANYFCQSHDNSLSGSIFGGGTKLTVL
B6: BD57-0303 (protein)
chain 1: QLVQSGAEVKKPGSSVKVSCKASGGTRNSYAITWVRQVPGQGLEWMGRIIPIFNVVNYAQNFQGRVTITADTSTATVYMDTATFYMELTTLTSEDTAVYFCARDRPPFGSGRVWGQGTLVTVST
chain 2: DIQMTQSPSSLSASVGDRVTITCQAGQDIGNFLNWYQQKPGKAPKLLISEASNLETGVPSRFSGSGSGTHFNFTISSLQPEDIATYYCQQYDHFLTFGPGTKVNIK
B7: BD57-0280 (protein)
chain 1: EVQLVQSGAEVKKPGESLKISCKGSGYSFTTYWIGWVRQMPGKGLEWMGIIYPGDSDTTYSPSFQGHVTISADKSISTAYLQWSSLKASDTAMYYCARRSDSGSFPSLDYWGQGTLVTVSS
chain 2: DIQMTQSPSSLSASVGDRITITCRASQSISSYLNWYQQKPGKVPKLLIYAASSLQSGVPSRFRGSGSGTDFTLTISSLQPEDFATYYCQQSFSTMGLTFGGGTKVEIK
B8: BD57-0289 (protein)
chain 1: QVQLVQSGAEVRKPGASVKVSCEASGYTFTDYFIHWVRQAPGQGLEWMGWINPNSGGTKYTQKFQGRVTMTRDTSNNTVYMELNSLRSDDTAVYFCARGELELRVYYYYLDVWGTGTTVTVSS
chain 2: SYVLTQPPSVSVAPGKTARITCGGNDIGSKSVNWYQQKPGQAPVLVIYYDSGRPSGIPERFSGSNSGNPATLTISRVEAGDEADYYCQLWDFSSDHVVFGGGTKLTVL
B9: BD57-0268 (protein)
chain 1: QVQLRESGPGLVKPSQTLSLTCTVSGGYISSGGAYWSWIRQRPGKGLEWIGYIHNSGTTYYNPSLKSRSTILVDTSENQFSLKLNSVTAADTAVYYCARVKTYYYDSNLYPVSAFDYWGQGALVSVSS
chain 2: SYDLTQPPSLSVSPGQTARITCSGDKLGTKYPCWYQLKTGQSPVLVIYQDNKRPSGIPERFSASTSGNTATLTISGAQPMDEANYYCQAWDSSLWVFGGGTQLTVL
B10: BD57-0304 (protein)
chain 1: EVQLVESGGGLEQPGRSLRLSCAASGFTFDDYAMHWVRQAPGKGLEWVSGISWNSDTVGYADSVKGRFTISRDNAKNSLYLQMNSLRADDTALYYCAKDLNYDSSGYLRNGMDVWGQGTTVTVSS
chain 2: DIQLTQSPSSLSASVGDRVTITCRASQGISSYVAWYQQKPGKAPNLLIYAASTLQGGVPSRFSGSGSGTDFTLTISSLQPEDFATYYCQQLYSYPVTFGQGTRLEIK
B11: BD57-0313 (protein)
chain 1: QVQLVQSGAEVKKPGSSVKVSCKASGGTFSSSAVSWVRQAPGQGLEWMGSIIPIYGTTNFAQKFQGRVTITADGSSVVYMELTSLKSDDTAVYYCARDPIVVDPPESSPSYYFYYMDVWGNGTTVIVSS
chain 2: EAVLTQSPGTLSLSPGERATLSCRASQTVSGNYLAWYQQKPGQAPRLLIYGASRRATGISDRFSGSGSGTDFTLSISRLKPEDFAVYYCQQYGSSYTFGPGTKLEIK
B12: BD57-0269 (protein)
chain 1: QKQLVQSGPEVKKPGTSVKVSCKASGFTFITSAVQWVRQARGQRLEWIGWIAVGSGTTDYTQKFQERVTITRDMSTTTAYMELRSLRSEDTAVYYCAAPDCNRTSCRDGFDIWGQGTMVTVSS
chain 2: EIVLTQSPGTLSLSPGERATLSCRASQSVSRSYLGWYQQKPGQAPRLVIDGALRRATGIPDRFSGSGSGTDFTLTISRLEPEDFAVYYCQQYGSSPFTFGQGTKLEIK

Target: SARS-CoV-2 Omicron BA.1 spike pseudovirus
Experiment: pseudovirus neutralization IC50; higher = weaker neutralization
Experimental: (§1)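 Single-round VSV luciferase pseudovirus mixed with antibody dilutions for 1 h and put on Huh-7 cells for about a day; IC50 from the dose curve.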

Binder | pseudovirus neutralization IC50
B1 | 6.51 µg/mL
B2 | 0.106 µg/mL
B3 | 4.68 µg/mL
B4 | 3.16 µg/mL
B5 | 0.00506 µg/mL
B6 | 0.0632 µg/mL
B7 | 2.83 µg/mL
B8 | 2.58 µg/mL
B9 | > 10 µg/mL
B10 | 0.00906 µg/mL
B11 | 0.227 µg/mL
B12 | 0.00183 µg/mL

Target: SARS-CoV-2 Omicron BA.2 spike pseudovirus
Experiment: as above
Experimental: as §1

Binder | pseudovirus neutralization IC50
B1 | > 10 µg/mL
B2 | 0.096 µg/mL
B3 | 3.34 µg/mL
B4 | 2.35 µg/mL
B5 | 0.0129 µg/mL
B6 | 0.00141 µg/mL
B7 | 3.02 µg/mL
B8 | 4.43 µg/mL
B9 | > 10 µg/mL
B10 | 0.00634 µg/mL
B11 | 0.227 µg/mL
B12 | 0.00257 µg/mL

Target: SARS-CoV-2 Omicron BA.2.75 spike pseudovirus
Experiment: as above
Experimental: as §1

Binder | pseudovirus neutralization IC50
B1 | 7.8 µg/mL
B2 | 0.166 µg/mL
B3 | 2.37 µg/mL
B4 | 4.69 µg/mL
B5 | 0.0229 µg/mL
B6 | 0.00548 µg/mL
B7 | 5.6 µg/mL
B8 | 4.03 µg/mL
B9 | > 10 µg/mL
B10 | 0.0163 µg/mL
B11 | 0.409 µg/mL
B12 | 0.0013 µg/mL

Target: SARS-CoV-2 Omicron BA.5 spike pseudovirus
Experiment: as above
Experimental: as §1

Binder | pseudovirus neutralization IC50
B1 | 5.67 µg/mL
B2 | 0.446 µg/mL
B3 | 7.09 µg/mL
B4 | 3.04 µg/mL
B5 | 0.0173 µg/mL
B6 | 0.00594 µg/mL
B7 | 4.09 µg/mL
B8 | > 10 µg/mL
B9 | > 10 µg/mL
B10 | 0.0042 µg/mL
B11 | 0.181 µg/mL
B12 | 0.00322 µg/mL

Target: SARS-CoV-2 Omicron BQ.1.1 spike pseudovirus
Experiment: as above
Experimental: as §1

Binder | pseudovirus neutralization IC50
B1 | 4.95 µg/mL
B2 | > 10 µg/mL
B3 | > 10 µg/mL
B4 | 4.22 µg/mL
B5 | 0.313 µg/mL
B6 | > 10 µg/mL
B7 | 3.3 µg/mL
B8 | > 10 µg/mL
B9 | > 10 µg/mL
B10 | > 10 µg/mL
B11 | > 10 µg/mL
B12 | 0.0854 µg/mL

Target: SARS-CoV-2 Omicron XBB spike pseudovirus
Experiment: as above
Experimental: as §1

Binder | pseudovirus neutralization IC50
B1 | 2.69 µg/mL
B2 | 6.66 µg/mL
B3 | 8.97 µg/mL
B4 | 4.64 µg/mL
B5 | 1.79 µg/mL
B6 | > 10 µg/mL
B7 | 3.56 µg/mL
B8 | > 10 µg/mL
B9 | > 10 µg/mL
B10 | > 10 µg/mL
B11 | > 10 µg/mL
B12 | > 10 µg/mL

Target: SARS-CoV-2 early D614G spike pseudovirus
Experiment: as above
Experimental: as §1

Binder | pseudovirus neutralization IC50
B1 | > 10 µg/mL
B2 | 0.0974 µg/mL
B3 | 0.695 µg/mL
B4 | 1.7 µg/mL
B5 | 0.00161 µg/mL
B6 | 0.00132 µg/mL
B7 | 3.9 µg/mL
B8 | 5.2 µg/mL
B9 | > 10 µg/mL
B10 | 0.00272 µg/mL
B11 | 0.0959 µg/mL
B12 | 0.0027 µg/mL

Reference: the supplement of paper PMC9931576
